# Assay results published in paper PMC9259562, “A unique peptide-based pharmacophore identifies an inhibitory compound against the A-subunit of Shiga toxin” (Scientific Reports, 2022).
# Molecular target: Stx2a A-subunit (Escherichia phage 933W, UniProt P09385)
# Experiment: AlphaScreen competition assay: inhibition of binding between Stx2a A-subunit and biotinylated MMβA-mono
# Design: species or system Escherichia coli
# Details: read-out: relative IC50 for inhibition of binding of MMβA-mono to the Stx2a A-subunit, biotinylated MMβA-mono 30 nM, Stx2a A-subunit 20 nM, room temperature, mean ± SE, n = 3
smiles,measurement,value
CSCC[C@H](NC(=O)[C@H](C)NC(=O)[C@@H](N)CCSC)C(=O)N[C@@H](CCSC)C(=O)NCCC(=O)N[C@@H](CCCNC(=N)N)C(=O)N[C@@H](CCCNC(=N)N)C(=O)N[C@@H](CCCNC(=N)N)C(=O)N[C@@H](CCCNC(=N)N)C(=O)N[C@@H](C)C(N)=O,IC50,8.14 µM
